Source: article PMC8383266 (Biochemistry, 2021)

Test system: CC1(C)S[C@@H]2[C@H](NC(=O)[C@H](N)c3ccccc3)C(=O)N2[C@H]1C(=O)O
Assay: purified protein
Conditions: pH 6.4; 25.0 °C

Substance: (Mycobacterium tuberculosis H37Rv)
- Km: 130 µM
